Among the data in patent US20240300940A1, “Phenothiazinyl Compounds and Uses” (Prosetta Biosciences, Inc., priority 2023, published 2024) are MIC range values, retold here.

This test concerns bacteria which are resistant to different class of antibiotics and MDR S. aureus. The experiment in a line: Cross resistance test (MIC), summary.

SMILES strings stand for the structures.

Compound `CC1(C)C2CN(c3ccc4nc5ccc(N6CC7C(C6)C7(C)C)cc5[s+]c4c3)CC21` (stereo not shown) [Compound 1, 3,7-Di(6,6-dimethyl-3-azabicyclo[3.1.0]hexan-N-yl)phenothiazinium iodide] yielded an MIC range of 0.25 to 0.5 µg/mL.
